The source of these data is PMC6118392, “VapC proteins from Mycobacterium tuberculosis share ribonuclease sequence specificity but differ in regulation and toxicity” (PLoS ONE, 2018).

The data set concerns the molecule itself. Kind of data set: SEC. (In general: SEC sorts molecules by how far they enter the pores of the column.)

B1: VapBC27 heterodimer (complex)
chain 1: [about 80 residues not given here]
chain 2: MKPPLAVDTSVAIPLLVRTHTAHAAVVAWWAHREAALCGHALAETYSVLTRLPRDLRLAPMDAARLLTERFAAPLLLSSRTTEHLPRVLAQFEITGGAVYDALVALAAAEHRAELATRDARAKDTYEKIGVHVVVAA
notes: VapB27 antitoxin of Mycobacterium tuberculosis, gene Rv0599c; as m5; VapC27 toxin of Mycobacterium tuberculosis, gene Rv0598c; as m6; also called Rv0599c/Rv0598c
As for B1, the “stoichiometry N” value was 2.55 VapBC heterodimers per complex.
